Target: T1, Thymidine phosphorylase (Escherichia coli O157:H7, UniProt Q8XB35)
T1 sequence (Q8XB35 whole entry): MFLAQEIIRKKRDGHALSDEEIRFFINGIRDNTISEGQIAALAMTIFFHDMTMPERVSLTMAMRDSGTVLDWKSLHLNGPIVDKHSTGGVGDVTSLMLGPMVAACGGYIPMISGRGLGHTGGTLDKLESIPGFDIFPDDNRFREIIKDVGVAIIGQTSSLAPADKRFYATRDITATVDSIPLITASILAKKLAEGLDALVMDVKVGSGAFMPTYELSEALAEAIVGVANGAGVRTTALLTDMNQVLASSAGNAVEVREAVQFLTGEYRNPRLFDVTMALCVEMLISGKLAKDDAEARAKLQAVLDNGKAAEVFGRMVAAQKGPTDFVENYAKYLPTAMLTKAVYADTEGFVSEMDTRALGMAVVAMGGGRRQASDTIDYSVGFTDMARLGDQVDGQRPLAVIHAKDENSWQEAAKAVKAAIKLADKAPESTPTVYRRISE
Test: Thymidine Phosphorylase Inhibition Assay
Settings: pH 7.4
Experimental: Briefly, a total reaction mixture of 200 µl contained 145 µl of potassium phosphate buffer (pH 7.4), 30 µl of enzyme at concentration 0.05 and 0.002 U, respectively, were incubated with 5 µl of test materials for 10 min at 25 °C in microplate reader. After incubation, pre read at 290 nm was taken to deduce the absorbance of substrate molecules. Substrate (20 µl, 1.5 mM) was dissolved in potassium phosphate buffer and was immediately added to plate and continuously read after 10, 20, and 30 min in micro-plate reader. All assays were performed in triplicate

O=c1[nH]c(=O)c2cc[nH]c2[nH]1 [1,7-Dihydro-pyrrolo[2,3-d]pyrimidine-2,4-dione]
IC50: 38.7 µM
